Results of unrelated studies side by side (data: NIAID ChemDB).

Common to all: tests in culture

Inhibition is in % at the dose shown (toxicity tests: loss of growth or viability). Conditions beyond the fields shown may differ between rows. Two numbers with a dash give a range or band. ECn: concentration that inhibits the pathogen or its effect by n%. An empty or dashed field is not shown. Fold resistance has wild type as its base.

compound	measure	strain or isolate	cells	changes	organism	tested at	read by	result
CC(C)OC(=O)[C@H](C)N[P@](=O)(OC[C@H]1O[C@@](C#N)(c2ccc3c(N)ncnn23)[C@](C)(O)[C@@H]1OC(=O)C(C)C)Oc1ccccc1	fold resistance	1b Con1	1C	S282T	Hepatitis C virus		luciferase	39
CC(C)OC(=O)[C@H](C)N[P@](=O)(OC[C@H]1O[C@@H](n2ccc(=O)[nH]c2=O)[C@](C)(F)[C@@H]1O)Oc1ccccc1	inhibition	1b Con1	Huh7		Hepatitis C virus	0.24 µM	luciferase / replicon	86.53%
CCC[C@H](NC(=O)[C@@H]1[C@H]2CCC[C@H]2CN1C(=O)[C@@H](NC(=O)[C@@H](NC(=O)c1cnccn1)C1CCCCC1)C(C)(C)C)C(=O)C(=O)NC1CC1	EC50	SA13	Huh7.5		Hepatitis C virus		antigen	1.202 µM
C=C[C@@H]1C[C@]1(NC(=O)[C@@H]1C[C@@H](Oc2nccc3ccc(Br)cc23)CN1C(C)=O)C(=O)NS(=O)(=O)C1CC1	EC50	1b D168A			Hepatitis C virus		luciferase	>3 µM
COc1ccc2c(O[C@@H]3C[C@H]4C(=O)N[C@]5(C(=O)NS(=O)(=O)C6CC6)C[C@H]5/C=C\CCCCN(C)C(=O)[C@@H]4C3)cc(-c3nc(C(C)C)cs3)nc2c1C	EC50	JFH-1	Huh7.5		Hepatitis C virus		antigen	0.073 µM
C[C@@]1(O)[C@H](O)[C@@H](CO)O[C@H]1c1coc2c(N)ncnc12	inhibition		HepG2-5B		Hepatitis C virus	10 µg/mL	MTT	0%
C[C@H](Cn1cnc2c(N)ncnc21)OCP1(=O)OCC(CC(=O)OC2CCCC2)CO1	inhibition	Genotype D	HepaRG		Hepatitis B virus	1 µM	PCR	≤30%
C[C@@]1(O)[C@H](O)[C@@H](CO)O[C@H]1n1cnc2c(N)ncnc21	fold resistance	Con1	1C	S282T	Hepatitis C virus		luciferase	41
CC(C)OC(=O)[C@H](C)N[P@](=O)(CO[C@H](C)Cn1cnc2c(N)ncnc21)Oc1ccccc1	inhibition	Genotype D	PHH		Hepatitis B virus	1 µM	PCR	≤30%
CC(C)(CO)C(=O)SCCOP(=O)(NCc1ccccc1)OC[C@H]1O[C@@H](n2cnc3c(=O)[nH]c(N)nc32)[C@](C)(O)[C@@H]1O	fold resistance	GT1b	Replicon cells	P32L	Hepatitis C virus		replicon	0.66
C[C@H](Cn1cnc2c(N)ncnc21)OCP1(=O)OCC(CCC(=O)OC2CCCC2)CO1	inhibition	Genotype D	HepaRG		Hepatitis B virus	1 µM	PCR	50–80%
C[C@@]1(O)[C@H](O)[C@@H](CO)O[C@H]1n1ccc2c(N)ncnc21	inhibition		HepG2-5B		Hepatitis C virus	10 µg/mL	MTT	0%
CCOC(=O)CCC1COP(=O)(CO[C@H](C)Cn2cnc3c(N)ncnc32)OC1	inhibition	Genotype D	PHH		Hepatitis B virus	1 µM	PCR	50–80%
Clc1ccc(Cn2c(CN3CCCC3)nc3ccccc32)cc1	inhibition	1b Con1	Huh7		Hepatitis C virus	7.5 µM	luciferase / replicon	62.12%
CC(C)OC(=O)CC1COP(=O)(CO[C@H](C)Cn2cnc3c(NC(=O)C(C)C)ncnc32)OC1	inhibition	Genotype D	PHH		Hepatitis B virus	1 µM	PCR	≤30%
CCC(CCC(C)C1CCC2C3C[C@@H](O)[C@@]4(O)C[C@@H](O)CCC4(C)C3CCC12C)C(C)C	inhibition		HepG2 2.2.15		Hepatitis B virus	100 µg/mL	antigen	40.8%

A second listing of 2 rows from above:

compound,measure,strain or isolate,cells,changes,organism,tested at,read by,result
C[C@H](Cn1cnc2c(N)ncnc21)OCP1(=O)OCC(CCC(=O)OC2CCCC2)CO1,inhibition,Genotype D,HepaRG,,Hepatitis B virus,1 µM,PCR,50–80%
CC(C)(CO)C(=O)SCCOP(=O)(NCc1ccccc1)OC[C@H]1O[C@@H](n2cnc3c(=O)[nH]c(N)nc32)[C@](C)(O)[C@@H]1O,fold resistance,GT1b,Replicon cells,P32L,Hepatitis C virus,,replicon,0.66